The supplement of paper PMC9931576
Changes are numbered by the printed parent chain. Human monoclonal antibodies against the spike receptor-binding domain (heavy:light variable regions). IC50 against pseudoviruses bearing the spike of naturally observed variants; lower = stronger; >10 µg/ml means not reached at the top dose. No active / inactive call. The stated detection limit is 0.0005 µg/ml; values near or below 0.001 µg/ml lie at the floor of the assay.

B1: BD56-1849 (protein)
chain 1: EVQLVESGGGLVQPGRSLRLSCAASGFTFDDYAIHWVRQAPGKGLEWVSGVSWNSATIGYADSVKGRFIISRDNAKNSLYLQMNSLRAEDTALYYCAKDIGPKFYDILTGYFKEGHFGMDVWGQGTMVTVSS
chain 2: QSALTQPASVSGSPGQSITLSCTGTSSDVGGYNYVSWYQQHPGKAPKIMIYDVSNRPSGVSNRFSGSKSGNTASLTISGLQAEDEADYYCSSYTSSSTVVFGGGTKLTVL
B2: BD56-1853 (protein)
chain 1: QVQLVQSGAEVKKPGSSVKVSCKASGDTFSRYAISWVRQAPGQGLEWMGRIIPMFDMAASAQKFQGRATITADKSTSTAYMEITSLRSEDTAVYYCATSAYFYGSDGYYLDSWGQGTLVTVSS
chain 2: EIVLTQSPGTLSLSPGERATLSCRASQSISSNYLAWYQQKPGQAPRLLIYGASSRATGIPDRFSGGGSGTDFTLIISRLEPEDFAVYYCHQYHNSPRTFGQGTKVEIK
B3: BD56-1856 (protein)
chain 1: QVQLVHSGAEVKKPGSSVKVSCKASGGTFNSYAISWVRQAPGQGLEWMGRVIPIFDIVHYAQKFQDRVTISADTSTSTVYMELGSLRSEDTAIYYCARSFVGPKGKEDYYFDYWGQGTLVTVSS
chain 2: EIVLTQSPATLSLSPGERATLSCRASQSVSNYLAWYQQKPGQAPRLVIYDASKRATGIPARFSGSGSGTDFTLTISSLEPADFAVYYCQQRSIRALAFGGGTKVEIK
B4: BD56-1861 (protein)
chain 1: QVQLVHSGAEVKKPGSSVKVSCKASGGTFSNYAISWVRQAPGQGLEWMGRIIPMFDIVHYAQKFQGRVTITADKSTNTVFMEVGSLRSDDSAVYYCARSFVGPKGKEDYYFDYWGQGTLVTVSS
chain 2: B3 chain 2 with S30G, N31S, Y32D, R94Q
B5: BD56-1862 (protein)
chain 1: QVQLVQSGAEVMKPGSSVKVSCKASGGTFSSFAITWVRQAPGQGLEWMGRIIPILSVANYAQKLQGRVTISADKSTSTAYMELSRLTSEDTAVYYCAAALQDGYRGYDLLAYWGQGTLVTVSS
chain 2: DIQMTQSPSTLSASVGDRVTITCRASQSINNWLAWYQQKPGKAPKLLIYDASSLESGVPSRFSGSGSGTEFTLTISSLQPDDFATYYCQQYKSYSPLTFGQGTKVEIK
B6: BD56-1877 (protein)
chain 1: QVQLVQSGSELQKPGASVKVSCKASGYAFTTYAINWVRQAPGHGLEWMGWISTNTGNPAYAQGFTGRFVFSLDTSVSTAYLQISSLKAEDTAVYYCASQTIAPRPWPFDYWGQGTLVTVSS
chain 2: EIVLTQSPGTLSLSPGERATLSCRASQSVFSSYLAWYQQKPAQAPRLLISGASSRATGIPDRFSGSGSGTDFTLTISRLEPEDFAVYYCQQYGTSPPTFGQGTKVEIK
B7: BD56-1880 (protein)
chain 1: EVQLVESGGGLVQPGGSLRLSCAASGFTITNNYMSWVRQAPGKGLEWVSVINAGGSTYYADSVEGRFTISRDNSKNTLYLQMNSLRGEDTAVYFCARDPAGFGEFGFDLWGQGTLVTVSS
chain 2: DIQLTQSPSSLSASVGDRVTITCRASQGFGSYFAWYQQKPGKAPKLLIYSTSTLQSGVPSRFSGSGSGTDFTLTISSLQPEDFATYYCQQLNSSPPLTFGGGTKVEIK
B8: BD56-1881 (protein)
chain 1: QVQLVQSGAEVKKPGSSVKVSCKASGDTFSSFSINWVRQAPGQGLEWMGRIIPLLDIVNYAQNFQGRVTLTADKSTTTAYMELTSLRFEDSAVYYCATARAPFYPSGYQGALNYFDPWGQGTLVTVSS
chain 2: B2 chain 2 with S31N, N32T, G66S, I75T, I76V, H90Q, N94S, R97F, V105L
B9: BD56-1886 (protein)
chain 1: QVQLQESGPGLVKSSETLSLTCSVTGGSISNYYWSWIRQPPGKGLEWIGYIFYGGSTNYNPSLRSRVTMSVDSSKNQFSLKLNSVTAADTAVYYCARDSGYSSGWPDFFDYWGQGTRVTVSS
chain 2: B3 chain 2 with N31S, V47L, K53N, A81E, I93N, R94W, A95P, L96G, A97T, G100Q
B10: BD56-1898 (protein)
chain 1: EVQLVESGGGLVQPGGSLRLLCAASGLTFSSYWMSWVRQAPGKGLEWVANIKEDGSEKYYVDSVKGRFTISRDNAKNSLFLQMNSLRAEDTATYFCARVKWLRGGVDYWGQGALVTVSS
chain 2: NFMLTQPHSVSESPGRTVTISCTGSGGYIASNYVQWYQHRPGSAPTTVIYEDNQRPSGVPDRFSGSIDSSSNSASLTISGLKTEDEADYYCQSFDVTNHWVFGGGTKLTVL
B11: BD56-1899 (protein)
chain 1: QITLKESGPTLVKPTQTLTLTCTFSGFSLTSSGVGVGWIRQPPGKALEWLALIYWDDDKRYRPSLKSRLTITKDASKKQVVFTLTNMGPVDTGTYYCAHIGGQLAVSDPATFDFWGQGTLVTVSS
chain 2: QSALTQPASVSGSPGQSITISCTGTNSDVGNYNFVSWYQHHPGKAPKLIIYEVSKRPSGVSNRFSGSKSGNTASLTISGLQAEDEAAYYCCSCTSGDTYWVFGGGTKLTVL
B12: BD56-1900 (protein)
chain 1: QVQLQESGPGLVKPSQTLSLTCTVSGDSINSGSYYWSWIRQTAGKGLEWIGRIYVSGATSYNPSLRSRVNISIDTSENRFSLNLTSVTAADTAVYYCARESKTTVTESGLVGVRVDPWGQGTQVIVSS
chain 2: DIQMTQSPSSLSASVGDRVTITCRASQSITRYLNWYQQKPGKAPKLLIYAASTLQSGVPSRFSGGASGSDFTLTISSLQPEDFATYFCHHSYGTPLFGPGTKVDIK

Legend:
Assay in all cases: pseudovirus neutralization IC50; higher = weaker neutralization
[1] = biological target: SARS-CoV-2 Omicron BA.1 spike pseudovirus
Method: (§1)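 Single-round VSV luciferase pseudovirus mixed with antibody dilutions for 1 h and put on Huh-7 cells for about a day; IC50 from the dose curve.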

[2] = biological target: SARS-CoV-2 Omicron BA.2 spike pseudovirus
Method: as §1

[3] = biological target: SARS-CoV-2 Omicron BA.2.75 spike pseudovirus
Method: as §1

[4] = biological target: SARS-CoV-2 Omicron BA.5 spike pseudovirus
Method: as §1

[5] = biological target: SARS-CoV-2 Omicron BQ.1.1 spike pseudovirus
Method: as §1

[6] = biological target: SARS-CoV-2 Omicron XBB spike pseudovirus
Method: as §1

[7] = biological target: SARS-CoV-2 early D614G spike pseudovirus
Method: as §1

Row | Binder | pseudovirus neutralization IC50 [1] | pseudovirus neutralization IC50 [2] | pseudovirus neutralization IC50 [3] | pseudovirus neutralization IC50 [4] | pseudovirus neutralization IC50 [5] | pseudovirus neutralization IC50 [6] | pseudovirus neutralization IC50 [7]
1 | B1 | 0.333 µg/mL | 0.436 µg/mL | 0.205 µg/mL | > 10 µg/mL | > 10 µg/mL | > 10 µg/mL | 0.092 µg/mL
2 | B2 | 0.00607 µg/mL | 0.00539 µg/mL | 0.00129 µg/mL | > 10 µg/mL | > 10 µg/mL | > 10 µg/mL | 0.00241 µg/mL
3 | B3 | 0.00303 µg/mL | 0.00245 µg/mL | 0.00437 µg/mL | > 10 µg/mL | > 10 µg/mL | > 10 µg/mL | 0.00282 µg/mL
4 | B4 | 0.00158 µg/mL | 0.00136 µg/mL | 0.00201 µg/mL | > 10 µg/mL | > 10 µg/mL | > 10 µg/mL | 0.00438 µg/mL
5 | B5 | 0.0489 µg/mL | 0.0443 µg/mL | 0.0103 µg/mL | > 10 µg/mL | > 10 µg/mL | > 10 µg/mL | 0.011 µg/mL
6 | B6 | 0.00644 µg/mL | 0.00436 µg/mL | 0.00855 µg/mL | > 10 µg/mL | > 10 µg/mL | > 10 µg/mL | 0.00225 µg/mL
7 | B7 | 0.00836 µg/mL | 0.00798 µg/mL | 0.0124 µg/mL | 0.00667 µg/mL | 0.0567 µg/mL | 0.171 µg/mL | 0.00657 µg/mL
8 | B8 | 0.0391 µg/mL | 0.0952 µg/mL | 0.0475 µg/mL | > 10 µg/mL | > 10 µg/mL | > 10 µg/mL | 0.00281 µg/mL
9 | B9 | 3.1 µg/mL | 5.32 µg/mL | 2.08 µg/mL | > 10 µg/mL | > 10 µg/mL | > 10 µg/mL | 0.205 µg/mL
10 | B10 | > 10 µg/mL | > 10 µg/mL | > 10 µg/mL | > 10 µg/mL | > 10 µg/mL | > 10 µg/mL | 0.365 µg/mL
11 | B11 | 0.0477 µg/mL | 0.000554 µg/mL | 0.0653 µg/mL | 0.00153 µg/mL | > 10 µg/mL | > 10 µg/mL | 0.000869 µg/mL
12 | B12 | 0.361 µg/mL | 0.563 µg/mL | 0.155 µg/mL | > 10 µg/mL | > 10 µg/mL | > 10 µg/mL | 0.00101 µg/mL
